Anti-infective test results gathered from many reports (values: NIAID ChemDB through PubChem).

All rows: target-level tests; organism: Hepatitis C virus; protein: HCV NS3 protease; read-out: IC50

Lines come from different laboratories, so protocols vary. ICn is the concentration giving n% inhibition.

SMILES,result
COc1ccc2c(O[C@@H]3C[C@@H]4C(=O)CC5(C(=O)O)CC5/C=C\CCCCC[C@H](NC(=O)OC(C)(C)C)C(=O)N4C3)cc(-c3ccccc3)nc2c1,<0.1 µM
C=C(C)N[C@@H](CC(=O)O)C(=O)N[C@H](CC(=O)O)C(=O)N[C@H](C(=O)N[C@H](C(=O)N1CCC[C@H]1C(=O)N[C@@H](CS)C(=O)O)C(C)C)[C@@H](C)CC,4 µM
C=CC[C@H](NC(=O)[C@@H]1C[C@@H](Cc2ccc(-c3ccccc3)cc2)c2c(Cl)nc(NCc3cccc(C(F)(F)F)c3)c(=O)n21)B1OC2CC3CC(C3(C)C)[C@@]2(C)O1,0.06 µM
CC(=O)N[C@@H](CC(=O)O)C(=O)N[C@@H](CCC(=O)O)C(=O)N[C@H](C(=O)N[C@@H](CCC(=O)O)C(=O)N[C@@H](CC1CCCCC1)C(=O)N[C@@H](CC(F)F)C(=O)NCCc1ccccc1)C(c1ccccc1)c1ccccc1,0.003 µM
CCC[C@H](NC(=O)[C@@H]1CCCN1C(=O)[C@@H](NC(=O)[C@@H](NC(=O)[C@H](CC(=O)O)NC(=O)[C@H](CC(=O)O)NC(C)=O)[C@@H](C)CC)C(C)C)C(N)=O,10 µM
CC[C@H](NC(=O)[C@@H](NC(=O)[C@@H](NC(=O)[C@H](CC(C)C)NC(=O)[C@@H](CCC(=O)O)NC(=O)[C@H](CC(=O)O)NC(C)=O)[C@@H](C)CC)C1CCCCC1)C(=O)/C=C/c1ccc(OC)cc1,<1 µM
CSCC[C@H](NC(C)=O)C(=O)N[C@@H](CCC(=O)O)C(=O)N[C@@H](CCC(=O)O)C(=O)N[C@@H](CS)C(=O)O,150 µM
C[C@H](NC(=O)OC(C)(C)C)C(=O)C1CCC[C@H]1C(=O)NC1(C(=O)O)CC1,>1000 µM
CCCC(C=O)NC(=O)[C@H](CC(C)C)NC(=O)[C@@H](NC(=O)[C@H](Cc1ccccc1C)NC(=O)[C@H](CCC(=O)O)NC(=O)[C@H](CC(=O)O)NC(=O)CCC(=O)O)C(C)(C)C,0.145 µM
O=C(O)CC[C@@H](CCC(c1ccccc1)c1ccccc1)C(=O)C(NC(=O)[C@@H]1CCCC[C@H]1C(=O)O)c1ccc(Br)cc1,2 µM
CC[C@H](NC(=O)[C@@H](NC(=O)[C@@H](NC(=O)[C@H](CC(C)C)NC(=O)[C@@H](CCC(=O)O)NC(=O)[C@H](CC(=O)O)NC(C)=O)[C@@H](C)CC)C1CCCCC1)C(O)/C=C/c1nccs1,>10 µM
COc1ccc2c(O[C@@H]3CC4C(=O)N[C@]5(C(=O)O)C[C@@H]5/C=C\CCCCCC(NC(=O)OC(C)(C)C)C(=O)N4C3)cc(-c3ccccc3)nc2c1,2 µM
CCC[C@H](NC(=O)[C@@H]1CCCN1C(=O)[C@@H](NC(=O)[C@@H](NC(=O)[C@H](CC(=O)O)NC(=O)[C@@H](N)CC(=O)O)[C@@H](C)CC)C(C)C)C(N)=O,>1000 µM
COc1ccc2c(O[C@@H]3C[C@@H](C(=O)NC4(C(=O)O)CC4)N(C(=O)[C@@H](NC(=O)[C@@H](NC(C)=O)C4CCCCC4)C(C)C)C3)ccnc2c1,1.4 µM
COc1ccc2c(O[C@@H]3C[C@H]4C(=O)N[C@]5(C(=O)O)C[C@H]5/C=C\CCCCC[C@H](NC(=O)OC(C)(C)C)C(=O)N4C3)cc(-c3ccccc3)nc2c1,0.011 µM
CC[C@H](NC(=O)[C@@H](NC(=O)[C@@H](NC(=O)[C@H](CC(C)C)NC(=O)[C@@H](CCC(=O)O)NC(=O)[C@H](CC(=O)O)NC(C)=O)[C@@H](C)CC)C1CCCCC1)C(=O)/C=C/c1ccccc1,<1 µM
CCOC(=O)N1C(=O)/C(=C(\C)c2ccc(NS(=O)(=O)c3ccc(-c4ccc(S(=O)(=O)NCCNC(=O)OC(C)(C)C)cc4)cc3)cc2)SC1=S,<0.005 µM
C/C=C/C(=O)[C@H](CC)NC(=O)[C@@H](NC(=O)[C@@H](NC(=O)[C@H](CC(C)C)NC(=O)[C@@H](CCC(=O)O)NC(=O)[C@H](CC(=O)O)NC(C)=O)[C@@H](C)CC)C1CCCCC1,<1 µM
CSCC[C@H](NC(=O)[C@H](CCC(=O)O)NC(=O)[C@@H](CC(=O)O)NC(C)=O)C(=O)N[C@@H](CCC(=O)O)C(=O)N[C@@H](CCC(=O)O)C(=O)N[C@@H](CS)C(=O)O,1 µM
CCC[C@H](NC(=O)[C@@H]1CCCN1C(=O)[C@@H](NC(=O)[C@@H](NC(=O)[C@H](CC(=O)O)NC(=O)[C@@H](N)CC(=O)O)[C@@H](C)CC)C(C)C)C(=O)C(F)(F)F,22 µM
CSCC[C@H](NC(=O)[C@H](CCC(=O)O)NC(C)=O)C(=O)N[C@@H](CCC(=O)O)C(=O)N[C@@H](CCC(=O)O)C(=O)N[C@@H](CS)C(=O)O,21 µM
CCC[C@H](NC(=O)[C@@H]1CCCN1C(=O)[C@@H](NC(=O)[C@@H](NC(=O)[C@H](CC(=O)O)NC(=O)[C@@H](N)CC(=O)O)[C@@H](C)CC)C(C)C)C(=O)O,17 µM

Repeating the first 3 entries:

SMILES	result
COc1ccc2c(O[C@@H]3C[C@@H]4C(=O)CC5(C(=O)O)CC5/C=C\CCCCC[C@H](NC(=O)OC(C)(C)C)C(=O)N4C3)cc(-c3ccccc3)nc2c1	<0.1 µM
C=C(C)N[C@@H](CC(=O)O)C(=O)N[C@H](CC(=O)O)C(=O)N[C@H](C(=O)N[C@H](C(=O)N1CCC[C@H]1C(=O)N[C@@H](CS)C(=O)O)C(C)C)[C@@H](C)CC	4 µM
C=CC[C@H](NC(=O)[C@@H]1C[C@@H](Cc2ccc(-c3ccccc3)cc2)c2c(Cl)nc(NCc3cccc(C(F)(F)F)c3)c(=O)n21)B1OC2CC3CC(C3(C)C)[C@@]2(C)O1	0.06 µM